Measurements reported in PubChem BioAssay AID588518 (NMMLSC, 2011).
The entries are a selection whose mix differs from that of the whole data set. The source made the active and inactive calls. No stated cut-off is given here; in the data, active means inhibition above about 26%; inactive means the rest.

Each compound was assayed on Candida albicans multidrug efflux pump MDR1 (expressed in S. cerevisiae AD1-8u) (assay: CaMdr1 pump blockers in yeast – flow cytometry, singleplex, Cherry Pick1 set, confirmation (AID 588518;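 further: 0% = DMSO vehicle and 100% = reference inhibitor; higher means more Nile Red retained so more efflux inhibition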)). Settings: S. cerevisiae AD/CaMDR1, Nile Red efflux, at 10 µM, active compounds read high.

| SMILES | inhibition |
| --- | --- |
| O=P(Nc1nccs1)(c1ccccc1)c1nc2ccccc2s1 (stereo unspecified) | inactive: -0.23% |
